Laboratory results from article PMC11279160 (Microorganisms, 2024).

Key:
Type in all cases: cell-based, Leishmania (Leishmania) amazonensis
[1] = test system: L. (L.) amazonensis intracellular amastigotes; assay: Activity against intramacrophageal amastigotes in infected J774A.1 macrophages; settings: for Intracellular Amastigotes SI J774A.1: SI = CC50 (J774A.1)/EC50; for Intracellular Amastigotes SI VERO: SI = CC50 (VERO)/EC50
Procedure: Macrophages were added to 24-well culture plates containing complete RPMI medium and sterile 13 mm coverslips, 1 × 10^5 J774A.1, and for cell adhesion incubated at 37 °C and 5% CO2 for 3 h. The medium was then removed, and three washes with PBS at 37 °C to remove non-adherent cells were performed. New medium, together with metacyclic promastigote forms in a proportion of 10 promastigotes/macrophage, was then added to the wells for infection and then incubated for another 4 h at 37 °C and 5% of CO2. The medium was then removed again and the plate washed with PBS to remove non-internalized […]. […] Subsequently, the coverslips were removed, stained with a quick panoptic kit, and mounted with Entelan®. In each coverslip, 300 macrophages were counted, together with the number of internalized amastigotes through optical microscopy at 1000× magnification. For the negative control, complete RPMI medium with 0.5% DMSO was used. At the end of the macrophage infection assay, the supernatant was stored at −20 °C for the subsequent evaluation of NO production.

[2] = test system: L. (L.) amazonensis promastigotes; assay: Growth inhibition of promastigotes, MTT assay, 72 h; settings: for Promastigotes SI J774A.1: SI = CC50 (J774A.1)/IC50; for Promastigotes SI VERO: SI = CC50 (VERO)/IC50
Procedure: (§1) The species Leishmania (Leishmania) amazonensis (IFLA/BR/67/PH8) was maintained in promastigote form at a temperature of 26 °C in a biochemical oxygen demand incubator (BOD) (Eletrolab EL202, São Paulo, Brazil) and in complete Schneider medium (20% heat-inactivated fetal bovine serum (FBS), and 1% antibiotic solution). The L. (L.) amazonensis axenic amastigote forms were obtained through the differentiation of infective promastigote forms using Schneider medium supplemented with 5% FBS, pH 4.6, at a temperature of 32 °C. Parasite growth was observed daily and, if necessary, weekly repeats were performed.
(§2) Promastigote forms or axenic amastigotes in an exponential growth phase were cultured in 96-well plates with complete Schneider’s medium, at 1 × 10^6 parasites/mL. […] The plates were incubated for 72 h under a BOD at 26 °C to prepare promastigotes and 32 °C to prepare amastigotes. When ready, 10 μL of MTT (5 mg/mL) was added to all wells (with the exception of the blank) with an incubation for 4 h. Subsequently, 50 μL of SDS solution (dodecyl sodium sulfate) at 10% was added to dissolve the formazan crystals, and a spectrophotometric reading was then performed (Biotek model ELx800, Winooski, VT, USA) at 540 nm. Schneider medium with 0.5% DMSO was used, considering a 0% growth inhibition for the negative control.

[3] = test system: L. (L.) amazonensis axenic amastigotes; assay: Growth inhibition of axenic amastigotes, MTT assay, 72 h
Procedure: as §1, §2

Compound	Intracellular Amastigotes SI J774A.1 [1]	Intracellular Amastigotes SI VERO [1]	Promastigotes SI J774A.1 [2]	Promastigotes SI VERO [2]	Axenic Amastigotes SI VERO ([3]; SI = CC50 (VERO)/EC50)	Axenic Amastigotes SI J774A.1 ([3]; SI = CC50 (J774A.1)/EC50)
C[C@@H]1[C@H](O)[C@@H](C)/C=C/C=C/C=C/C=C/C=C/C=C/C=C/[C@H](O[C@@H]2O[C@H](C)[C@@H](O)[C@H](N)[C@@H]2O)C[C@@H]2O[C@](O)(C[C@@H](O)C[C@@H](O)[C@H](O)CC[C@@H](O)C[C@@H](O)CC(=O)O[C@H]1C)C[C@H](O)[C@H]2C(=O)O [Amphotericin B, reference compound]	1.31	1.10	1.05	0.9	360.6	–
Meglumine antimoniate [reference compound]	30.37	32.09	0.76	0.80	–	1.01
